The text below walks through data of PMC5408207, “Differences in Ribosome Binding and Sarcin/Ricin Loop Depurination by Shiga and Ricin Holotoxins” (2017).

The test has as its target Shiga toxin 2 (Stx2) holotoxin (E. coli).

Yeast monomeric ribosomes registered a binding level, percent higher than on Stx1, at 2.5 nM ribosomes of 90% and a binding level, percent higher than on Stx1, at 40 nM ribosomes of 66%.
